This note sets out measurements from paper PMC3227635.

The subject of this data set is O=S(O)(O)=S. The data set is described as follows: purified protein. The conditions noted are these: pH 8.6; 25.0 °C.

A word on the Km: it is the substrate concentration at which the rate is half of its maximum.

As to (Mycobacterium tuberculosis H37Rv), the Km worked out at 4.19 ± 0.42 mM.
